The supplement of paper PMC9931576
Human monoclonal antibodies against the spike receptor-binding domain (heavy:light variable regions). IC50 against pseudoviruses bearing the spike of naturally observed variants; lower = stronger; >10 µg/ml means not reached at the top dose. No active / inactive call. The stated detection limit is 0.0005 µg/ml; values near or below 0.001 µg/ml lie at the floor of the assay.

Experiments:
Assay in all cases: pseudovirus neutralization IC50; higher = weaker neutralization
[1] = biological target: SARS-CoV-2 Omicron BA.1 spike pseudovirus
Protocol: (§1)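 Single-round VSV luciferase pseudovirus mixed with antibody dilutions for 1 h and put on Huh-7 cells for about a day; IC50 from the dose curve.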

[2] = biological target: SARS-CoV-2 Omicron BA.2 spike pseudovirus
Protocol: as §1

[3] = biological target: SARS-CoV-2 Omicron BA.2.75 spike pseudovirus
Protocol: as §1

[4] = biological target: SARS-CoV-2 Omicron BA.5 spike pseudovirus
Protocol: as §1

[5] = biological target: SARS-CoV-2 Omicron BQ.1.1 spike pseudovirus
Protocol: as §1

[6] = biological target: SARS-CoV-2 Omicron XBB spike pseudovirus
Protocol: as §1

[7] = biological target: SARS-CoV-2 early D614G spike pseudovirus
Protocol: as §1

B1: BD57-0141 (protein)
chain 1: EVELVESGGGLVQPGGSLRLSCAAFGFTFSTYWMTWVRQTPGKGLEWVANIKQDGSEKYYVDSVKGRFTISRDNAKNSLYLQMNSLRAEDTAVYYCARELGLLWFGELSSGRGTLVTVSS
chain 2: DIQMTQSPSSLSASIGDRVTITCRASQGISNSLAWYQQKPGKAPYVLLYAVSTLESGVPSRFSGSGSGTVYTLTISSLQPEDFATYYCLQYFSTPRTFGQGTKVEIK
pseudovirus neutralization IC50 [1]: > 10 µg/mL
pseudovirus neutralization IC50 [2]: > 10 µg/mL
pseudovirus neutralization IC50 [3]: > 10 µg/mL
pseudovirus neutralization IC50 [4]: > 10 µg/mL
pseudovirus neutralization IC50 [5]: > 10 µg/mL
pseudovirus neutralization IC50 [6]: > 10 µg/mL
pseudovirus neutralization IC50 [7]: 0.0123 µg/mL

B2: BD57-0145 (protein)
chain 1: QVTLRESGPALVKPTQTLTLTCAFSGFSLYNAGMCVSWIRQPPGRALEWLARIDWDDDEFYSTSLRTRLTISKDTSKNQVVLTVTNMDPGDTATYYCARTAIGGFNWYFDYWGPGTLVTVSS
chain 2: QSVLTQPPSVSAAPGQQVTISCSGSSSNIGTHYASWYQQLPGTAPKLLIYDNNKRPSGIPDRFSGSKSGTSATLGITGLQSGDEADYYCAAWDDSVSAGVFGGGTKLTVL
pseudovirus neutralization IC50 [1]: 0.212 µg/mL
pseudovirus neutralization IC50 [2]: 0.000621 µg/mL
pseudovirus neutralization IC50 [3]: 0.0585 µg/mL
pseudovirus neutralization IC50 [4]: 0.000173 µg/mL
pseudovirus neutralization IC50 [5]: > 10 µg/mL
pseudovirus neutralization IC50 [6]: > 10 µg/mL
pseudovirus neutralization IC50 [7]: 0.000412 µg/mL

B3: BD57-0151 (protein)
chain 1: EVQVVESGGGLVQPGGSLRLSCAASGFTFSSYDMHWVRQATGKGLEWVSAIGTSGDTYYAGSVKGRFTISRENAKNSLYLQMNTLRAGDTAVYYCARGGISSWYWYFDLWGRGTLVTVSS
chain 2: DIPMTQSPSSLSASVGDRVTITCRASQSITTYLNWYQQKPGKAPKLLIYAASSLQSGVPSRFSGSGSGTDFTLTISSLQPEDFATYYCQQGYSMPEVTFGQGTRLEMK
pseudovirus neutralization IC50 [1]: > 10 µg/mL
pseudovirus neutralization IC50 [2]: > 10 µg/mL
pseudovirus neutralization IC50 [3]: > 10 µg/mL
pseudovirus neutralization IC50 [4]: > 10 µg/mL
pseudovirus neutralization IC50 [5]: > 10 µg/mL
pseudovirus neutralization IC50 [6]: > 10 µg/mL
pseudovirus neutralization IC50 [7]: > 10 µg/mL

B4: BD57-0153 (protein)
chain 1: EVQLVESGGGLVQPGGSLRLSCAASGFTVSRNFMTWVRQAPGKGLEWVSLIHSGGSTFYADSVKGRFTISRHTSKNTVYLQMSSLRPEDTALYYCARSEWLRGSFDIWGQGTTVTVSS
chain 2: NFMLTQPHSVSESPGKTVTISCTGSSGSIASNYVQWYQQRPGSAPTTLIYEDNQRPSGVPDRFSGSIDSSSNSASLTISGLKSEDEADYYCQSYDGNNLKWVFGGGTKLTVL
pseudovirus neutralization IC50 [1]: 0.665 µg/mL
pseudovirus neutralization IC50 [2]: 0.503 µg/mL
pseudovirus neutralization IC50 [3]: 0.41 µg/mL
pseudovirus neutralization IC50 [4]: 0.441 µg/mL
pseudovirus neutralization IC50 [5]: 1.98 µg/mL
pseudovirus neutralization IC50 [6]: 2 µg/mL
pseudovirus neutralization IC50 [7]: 0.104 µg/mL

B5: BD57-0160 (protein)
chain 1: QVQLVESGGGVVQPGRSLRLSCEVSGFSFSTYAMHWVRQAPGKGLEWVAVISYAGTHKYYADSVKGRFTISRDNSKNTLYVQMTSLRAEDTAIYYCARDSGDGITGTTGWFDPWGHGTLVTVSA
chain 2: SYVLTQPPSVSVAPGQTARVTCEEDNIGSKSVHWYQQKPGQAPVLVVYDDSDRPSGIPARFSGSNSGNTATLTISRVEAGDEADYYCQVWHFSGDPFVFGTGTKVTVL
pseudovirus neutralization IC50 [1]: 4.91 µg/mL
pseudovirus neutralization IC50 [2]: 5.1 µg/mL
pseudovirus neutralization IC50 [3]: 3.17 µg/mL
pseudovirus neutralization IC50 [4]: > 10 µg/mL
pseudovirus neutralization IC50 [5]: > 10 µg/mL
pseudovirus neutralization IC50 [6]: > 10 µg/mL
pseudovirus neutralization IC50 [7]: > 10 µg/mL

B6: BD57-0161 (protein)
chain 1: QVQLVQSGAEVKKPGSSVKVSCKASGGIFSGYGMNWVRQAPGQGLEWMGGIIPIFGAPNYAQKFQGRVTITADESTSTAYIDLSSLRSEDTAVYYCARDPVGSNGNDALDIWGQGTMVTVSS
chain 2: SYVLTQPPSVSVAPGKTARLTCGGNNIGSTSVHWYQQKPGQAPVLVISYDSDRPSGIPERFSGSNSGNTATLTISRVEAGDEADYYCQVWDSRSDHRVFGGGTKLTVL
pseudovirus neutralization IC50 [1]: 0.141 µg/mL
pseudovirus neutralization IC50 [2]: 0.0931 µg/mL
pseudovirus neutralization IC50 [3]: 0.0796 µg/mL
pseudovirus neutralization IC50 [4]: 0.0978 µg/mL
pseudovirus neutralization IC50 [5]: > 10 µg/mL
pseudovirus neutralization IC50 [6]: 2.25 µg/mL
pseudovirus neutralization IC50 [7]: 0.102 µg/mL

B7: BD57-0163 (protein)
chain 1: QVQLQQSGPGLVQPSQTLSLTCAISGDSVSSTSAAWNWIRQSPSRGLEWLGRTYYRSKWYTDYAVSVKGRIIINPDTSKNQFSLQANSVTPEDTAVYYCTRERGDGFDYWGQGALVTVSS
chain 2: EIVMTQSPATLSVSPGERATLSCRASESVSNNLAWYQQKPGQAPRLLIYGASTRATGIPARFSGSGSGTEFTLTISSLQSEDFAVYYCQQYSNWLLFTFGPGTKVDIK
pseudovirus neutralization IC50 [1]: > 10 µg/mL
pseudovirus neutralization IC50 [2]: > 10 µg/mL
pseudovirus neutralization IC50 [3]: > 10 µg/mL
pseudovirus neutralization IC50 [4]: > 10 µg/mL
pseudovirus neutralization IC50 [5]: > 10 µg/mL
pseudovirus neutralization IC50 [6]: > 10 µg/mL
pseudovirus neutralization IC50 [7]: > 10 µg/mL
